Measurements from “University of Dundee, Small-Polar-MMV Screening Library” (2021), ChEMBL document CHEMBL3988442.

A: 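Phenotypic screen: M. tuberculosis growth, glucose 7H9 medium, 3 days; the read-out is not stated. Concentration: 500 µM. The record gives no direction; compounds that gave an IC50 in retests scored well above the rest, so higher reads as more growth inhibition. Size under these conditions: about 18,000 compounds, about 1,400 of them at 50% or above in at least one test.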
B: 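Growth of Mycobacterium tuberculosis over 4 days (cholesterol / DPPC medium with tyloxapol); the read-out is not stated. Compounds at 500 µM. Direction is inferred from retests: higher values go with more growth inhibition. Size under these conditions: about 18,000 compounds, about 900 of them at 50% or above in at least one test.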

The filed quantity is “Percent Effect” (%). The controls that fix the scale are not given in the record; negative values are as filed. The entries come from a sample that favours strong results. A dash means the value is not listed here; it may have been measured.

SMILES | A | B
Cc1ccn(Cc2cccc(C(=O)N(C)C)c2)c(=O)c1 | 35.12 | -
Cc1nnc(CN2CCC(NC(=O)C3CC3)CC2)o1 | - | -12.82
CNC1CCN(S(C)(=O)=O)C1 (stereo not given) | -2.178 | -
NCC1CCN(Cc2ccsc2)CC1 | 1.746 | -
O=C(NCCCn1cccn1)c1ccccc1O | 47.96 | -
CCNC(=O)NC(=O)CN(C)Cc1ccccc1 | 50.88 | -
CCN(C(=O)CSC(F)(F)F)C1CCS(=O)(=O)C1 (stereo not given) | -4.405 | -
NC(=O)C1(c2ccccc2F)CCCC1 | 3.201 | 1.655
OCCN(CCO)Cc1cc(F)cc(Br)c1 | 29.78 | -
Cc1ccc(OCc2csc(CS(C)(=O)=O)n2)nc1 | 5.174 | -6.258
CC(=O)Nc1nnc(C2CCCN2)o1 (stereo not given) | 3.434 | -
Nc1nnc(SCC2COc3ccccc3O2)s1 (stereo not given) | -8.794 | -
COc1cc(NCc2cc[nH]n2)cc(OC)c1 | - | 4.196
Cc1cccc(N2CCC(N(C)CCCO)CC2)n1 | 16.87 | -
CSCc1noc(CN2C[C@H](C3CC3)[C@@H](N)C2)n1 | 17.45 | -
CC(C)(C)OC(=O)NC1CC2(CNC2)C1 | - | 61.53
CC(NC(=O)c1ccc(Cl)c(S(C)(=O)=O)c1)C1CC1 (stereo not given) | 37.84 | 25.73
CO[C@H]1CNCC1NC(=O)c1cc(C(C)C)nn1C (stereo not given in full) | 11.55 | -
COCC(C)NCc1ccccc1CN1CCCC1=O (stereo not given) | 4.86 | -
COc1ccccc1NC(=O)c1csnn1 | 11.12 | -
CC1CCCN(C(=O)CN2CCCCC2=O)C1 (stereo not given) | - | 9.625
CC(N)c1nnc(-c2cccc(F)c2)s1 (stereo not given) | -6.545 | -
Cc1cc(CC(=O)NCCNc2cccnc2)on1 | 5.367 | 3.104
O=C(NC1CCCCNC1=O)c1cc(Br)c[nH]1 (stereo not given) | -0.6769 | -
COC(=O)N1CCC(NC(=O)CCc2ccsc2)C1 (stereo not given) | - | 41.68
Cc1noc(C)c1CC(=O)N1CCN(S(C)(=O)=O)CC1 | -0.1094 | -
CN1CCN(C(=O)Cc2ccc3c(c2)OCO3)CC1 | - | -24.02
O=C(Nc1ccccn1)C1Cc2ccccc2O1 (stereo not given) | 85.64 | -6.401
CCc1nnc(CNC(=O)c2ccc3c(c2)OCO3)s1 | 9.705 | -
C=C(C)Cn1c(S(C)(=O)=O)nc2ccccc21 | 52.77 | -
COc1ccc(N(C)CCCO)cc1OC | - | 7.578
Cn1ccnc1C1CCN(C(=O)NC(C)(C)C)CC1 | -4.989 | -
COCC(C)CNc1cccc(S(=O)(=O)N(C)C)c1 (stereo not given) | -3.649 | -
Cn1c(SCC(N)=O)nc2ccsc2c1=O | 6.343 | -
CC(O)CNC(=O)NCc1ccc2c(c1)OCCO2 (stereo not given) | 6.756 | -8.564
COc1cccc(OCCN)c1 | 9.725 | -
Cc1cc(C)c(O)c(C(=O)NCCCS(N)(=O)=O)c1 | 44.55 | -
COc1ccc(C(=O)CCN(C)C)cc1 | 105.3 | 112.6
NCc1ccnc(-n2ccnc2)c1 | -3.796 | -
CCCS(=O)(=O)NC1CCNC1 (stereo not given) | 3.397 | -
Cc1ccc(OCC(=O)NCCO)c(Br)c1 | 48.58 | -
Cc1ccc(C(C)N(C)C(=O)c2cccnc2O)s1 (stereo not given) | 21.17 | -
CCCNC(=O)c1ccc(C(=O)OC)cc1 | 53.9 | 35.26
CNS(=O)(=O)CCNC(=O)[C@@]12CNC[C@@H]1CN(C)C2 | - | -5.047
CCO[C@H]1CN(Cc2ccc3c(c2)CCO3)C[C@@H]1O | 13.22 | -
CCn1ccnc1C1CCCCN1 (stereo not given) | - | 8.924
CC(C(=O)Nc1sccc1C(N)=O)N1CCCCC1 (stereo not given) | 19.47 | -5.458
CNC(=O)CCN1CCN(c2ccc(F)cc2Cl)CC1 | 2.511 | -
NCCOc1cccnc1 | -3.816 | -
CS(=O)(=O)N[C@@H]1CCCC[C@H]1N | -1.775 | -
O=C(CCNCc1sccc1Cl)NCc1cccnc1 | - | -0.0577
CCCOC1CCCN(C(=O)CCn2cnnn2)C1 (stereo not given) | 8.208 | 2.713
COCCS(=O)(=O)NCC(C)(O)c1cccs1 (stereo not given) | 10.19 | -
COCc1nc(CN2CCCC2c2nccs2)no1 (stereo not given) | 4.37 | -
O=C(NCCSC(F)(F)F)Nc1cccc2[nH]nnc12 | 82.55 | 73.95
Cc1n[nH]cc1NC(=O)C1COc2ccccc2O1 (stereo not given) | 30.94 | -
COCCOC1CCN(c2cc(C)ccn2)CC1 | 44.44 | 43.31
O=C(NC1CCNCC1)c1cc2ccccc2o1 | - | 2.978
CCN1CCN(CCS(=O)(=O)c2ccccc2)CC1 | 13.8 | 23.39
CS(=O)(=O)N1CCSc2ccc(Cl)cc21 | - | -18.24
CC(C)c1nnc2ccc(Cl)nn12 | - | 8.871
Cc1ccc(C)c(NC(=O)CCN2CCCC2)c1 | 24.72 | -
O=C(Cc1ccc(O)cc1Cl)N1CCCC1CO (stereo not given) | 28.82 | -
Cc1cccc2[nH]c(CNC(=O)CNC(N)=O)nc12 | 0.9946 | -
CCn1ccnc1SC1CCCCNC1=O (stereo not given) | 9.985 | -
CC1CN(CCS(C)(=O)=O)CCN1Cc1nccn1C (stereo not given) | 11.11 | -
COCCN(C(=O)c1cccc(C)c1C)C(C)C(N)=O (stereo not given) | 1.285 | -
CCCC(=O)NCc1nnc(C2CCC2)n1C | -7.919 | -
NC(=O)c1ccccc1NC(=O)CSc1ccccn1 | 53.18 | 53.16
CN1C(=O)[C@H]2CN(Cc3ccc(Cl)cc3F)C[C@H]2C1=O | - | 1.9
OCCCNCC(O)COc1ccccc1 (stereo not given) | -5.187 | -
CCC(C)(C#N)NC(=O)c1ccccc1 (stereo not given) | 11.92 | -
C=C(C)CN(C)CC1CCN(CCO)CC1 | -6.789 | -

8 of the entries, repeated:

SMILES,A,B
Cc1ccn(Cc2cccc(C(=O)N(C)C)c2)c(=O)c1,35.12,-
NC(=O)C1(c2ccccc2F)CCCC1,3.201,1.655
NCCOc1cccnc1,-3.816,-
CCn1ccnc1SC1CCCCNC1=O (stereo not given),9.985,-
CCC(C)(C#N)NC(=O)c1ccccc1 (stereo not given),11.92,-
CCCOC1CCCN(C(=O)CCn2cnnn2)C1 (stereo not given),8.208,2.713
COc1cccc(OCCN)c1,9.725,-
CCNC(=O)NC(=O)CN(C)Cc1ccccc1,50.88,-